Our source for the percent of protein oligomeric values is article PMC4416878, “Golgi Anti-apoptotic Proteins Are Highly Conserved Ion Channels That Affect Apoptosis and Cell Migration*” (2015).

Test [1] has as its target camelpox virus GAAP mutant D219N, purified (camelpox virus (CMLV)). The test is described as follows: SEC. (SEC sorts molecules by how far they enter the pores of the column.)
Test [2] has as its target camelpox virus GAAP mutant E207Q, purified (camelpox virus (CMLV)). The test is described as follows: SEC.

For the substance “camelpox virus GAAP mutant D219N, purified (natural protein)”, the percent of protein oligomeric in test [1] came to 66%. Substance “camelpox virus GAAP mutant E207Q, purified (natural protein)” returned a percent of protein oligomeric in test [2] of 89%.
